A word on the EC50: it is the concentration giving half of the maximal effect.

Among the data in patent US20240199535A1, “DEUTERATED DHODH INHIBITORS” (priority 2021, published 2024) are EC50 values, retold here.

The assay has as its system SARS-CoV-2. As to the kind of experiment: Antiviral activity on SARS-CoV-2, viral replication (YFP) assay. As to conditions: read-out: EC50 range.

Turning to `[2H]C([2H])([2H])C([2H])([2H])C([2H])([2H])C([2H])([2H])Oc1cccc(-c2cc(F)c(NC(=O)C3=C(C(=O)O)CCC3)c(F)c2)c1`, the EC50 was under 10 µM.
